Calls of active or inactive are those of the source. How the calls were made is not given here.
Biological target: Beta-galactosidase (Escherichia coli) (UniProt Q8VNN2)
Test: CXCR6 receptor antagonists, dose response, cell-based, beta-arrestin, DiscoveRx, APJ panel, uHTS hits (AID 624129)
Conditions: CXCR6 beta-arrestin (DiscoveRx) antagonist cell assay, b-galactosidase
[1] = dose range 1, mean IC50 across replicates

The chains behind the UniProt entries cited, without tags or fusion partners.
UniProt Q8VNN2, whole entry, looked up: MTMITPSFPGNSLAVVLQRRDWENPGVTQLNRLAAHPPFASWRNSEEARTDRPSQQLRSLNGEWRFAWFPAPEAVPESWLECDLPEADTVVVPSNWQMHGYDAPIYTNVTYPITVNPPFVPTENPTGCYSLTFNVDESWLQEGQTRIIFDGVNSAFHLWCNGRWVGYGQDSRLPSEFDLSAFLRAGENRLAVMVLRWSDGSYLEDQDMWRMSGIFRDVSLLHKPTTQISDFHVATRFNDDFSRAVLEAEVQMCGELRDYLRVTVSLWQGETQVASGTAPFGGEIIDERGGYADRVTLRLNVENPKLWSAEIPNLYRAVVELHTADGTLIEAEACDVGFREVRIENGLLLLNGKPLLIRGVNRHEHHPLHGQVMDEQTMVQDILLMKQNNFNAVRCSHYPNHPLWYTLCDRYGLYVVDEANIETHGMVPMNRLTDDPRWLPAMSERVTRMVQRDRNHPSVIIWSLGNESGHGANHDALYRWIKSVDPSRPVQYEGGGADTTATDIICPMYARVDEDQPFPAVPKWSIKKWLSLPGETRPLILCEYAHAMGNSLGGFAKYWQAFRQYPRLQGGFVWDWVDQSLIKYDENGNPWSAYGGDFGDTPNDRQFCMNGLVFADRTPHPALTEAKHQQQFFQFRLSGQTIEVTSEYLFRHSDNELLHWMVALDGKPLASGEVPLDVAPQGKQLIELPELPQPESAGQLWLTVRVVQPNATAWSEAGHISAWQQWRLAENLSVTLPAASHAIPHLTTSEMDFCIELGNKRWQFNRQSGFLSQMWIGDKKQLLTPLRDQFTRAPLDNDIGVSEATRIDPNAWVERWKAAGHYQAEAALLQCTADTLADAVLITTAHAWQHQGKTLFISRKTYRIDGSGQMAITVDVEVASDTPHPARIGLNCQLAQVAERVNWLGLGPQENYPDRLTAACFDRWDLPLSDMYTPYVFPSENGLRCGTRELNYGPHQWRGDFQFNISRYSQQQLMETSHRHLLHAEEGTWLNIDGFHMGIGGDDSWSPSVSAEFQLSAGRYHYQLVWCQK

| SMILES | IC50 (dose range 1) | IC50 [1] |
| --- | --- | --- |
| CN(C)C(=O)c1cc([N+](=O)[O-])cc2c1-c1c(cc([N+](=O)[O-])cc1[N+](=O)[O-])C2=O | inactive: > 80 µM | > 80 µM |
| C[N+]1=C2C=CC=CC=C2SC12C([N+](=O)[O-])=CC([N+](=O)[O-])=C[C-]2[N+](=O)[O-] (centres undefined) | inactive | 51.5 µM |

Source: PubChem BioAssay AID624129 (Sanford-Burnham Center for Chemical Genomics, 2012)
